A mixed list of measured activities; the numbers were collected in NIAID ChemDB.

Shared fields: whole-cell or culture tests; species: Rhinovirus

ECn: concentration that inhibits the pathogen or its effect by n%. MIC50, MIC90 and the like: level of inhibition, or share of isolates inhibited. Inhibition is in % at the dose shown (toxicity tests: loss of growth or viability). An empty or dashed field is not shown. Rows are shuffled and stem from different studies.

smiles	strain	tested at	read by	endpoint	cells	result
Cc1ccc(C(=O)CCCCOc2ccc(C3=NCCO3)cc2)s1	serotype 1A 1B 2 6 14 15 21 22 25 29 30 41 42 45 59 63 67 70 72 86 89			MIC80		9.04 µM
Fc1cccc(Cn2cnc3c(Nc4cccc(F)c4)nc(C(F)(F)F)nc32)c1	Serotype 36		plaque count	EC50	M-HELA	3.9 µM
Cc1cc(CCCCCOc2cc(Cl)c(-c3nnc(C)o3)c(Cl)c2)on1	Serotype 1B			MIC80		0.14 µg/mL
Cc1cc(CCCCCOc2c(Cl)cc(C3=NCCO3)cc2Cl)on1	TYPE 86		plaque count	EC50	HeLa	0.14 µg/mL
N#Cc1ccc(OCCCCC(=O)c2ccccc2)cc1	serotype 1A 1B 2 6 14 15 21 22 25 29 30 41 42 45 59 63 67 70 72 86 89			MIC80		>267 µM
CCSc1ncnc2c1ncn2[C@@H]1OC2COP(=O)(O)OC2[C@H]1O	TYPE 56			MIC		1 µg/mL
Nc1c(S(=O)(=O)[O-])cc2cc(S(=O)(=O)[O-])ccc2c1O		10 µg/mL	cytopathic effect	inhibition	Human embryonic lung cells	65%
CN(C)c1nc(C(F)(F)F)nc2c1ncn2Cc1cccc(F)c1	Serotype 31	8 µM	plaque count	inhibition	M-HELA	43%
CCO/N=C/c1ccc(OCCC2CCN(c3ccc(Cl)nn3)CC2)cc1	611-CV35 (ICAM-1 receptor group 59)		neutral red	EC50	KB	0.002 µM
CSc1ncnc2c1ncn2[C@@H]1OC2COP(=O)(O)OC2[C@H]1O	TYPE 2			MIC		3.2 µg/mL
CCOC(=O)c1ccc(OCCCCC(=O)c2ccc(SC)cc2)cc1	serotype 1A 1B 2 6 14 15 21 22 25 29 30 41 42 45 59 63 67 70 72 86 89			MIC80		>268 µM
CN(C)c1nc(C(F)(F)F)nc2c1ncn2Cc1ccccc1	Serotype 13		plaque count	EC50	M-HELA	>8 µM
CCOC(=O)/C=C/[C@H](C[C@@H]1CCNC1=O)NC(=O)[C@@H](CC(=O)[C@@H](NC(=O)c1cc(C)on1)C(C)C)Cc1ccc(F)cc1	Isolate 17		cytopathic effect / visual reading	EC50	OHIO HELA-I	<0.01 µg/mL
O=S(=O)([O-])c1ccc(O)c2ccccc12		5 µg/mL	cytopathic effect	inhibition	Human embryonic lung cells	0%
CN(C)c1ccc(Cn2cnc3c(N(C)C)nc(C(F)(F)F)nc32)cc1	Serotype 5	8 µM	plaque count	inhibition	M-HELA	39%
Cc1cc(CCCCCCCOc2ccc(C3=NCCO3)cc2)on1	serotype 1A 1B 2 6 14 15 21 22 25 29 30 41 42 45 59 63 67 70 72 86 89			MIC80		3.51 µM
Cc1ccc(Cn2cnc3c(N(C)C)nc(C(F)(F)F)nc32)c(C)c1	Serotype 15	8 µM	plaque count	inhibition	M-HELA	30%
Cc1ccc(Cn2cnc3c(Nc4ccccc4)nc(C(F)(F)F)nc32)cc1	Serotype 1B		plaque count	EC50	M-HELA	2.3 µM
Cc1ccc(Cn2cnc3c(N(C)C)nc(C(F)(F)F)nc32)cc1	Serotype 3	2.5 µM	plaque count	inhibition	M-HELA	43%
O=C(Nc1cc(S(=O)(=O)O)cc2cc(S(=O)(=O)O)cc(O)c12)c1ccccc1		10 µg/mL	cytopathic effect	inhibition	Human amnion AV3 cells	5%
CN(C)c1nc(C(F)(F)F)nc2c1ncn2Cc1ccc(Cl)c(Cl)c1	Serotype 21	8 µM	plaque count	inhibition	M-HELA	29%
Cc1cc(CCCCCOc2cc(Cl)c(-c3nnco3)c(Cl)c2)on1	serotype 2 1A 1B 6 14 21 22 15 25 30 50 67 89 86 41			MIC50		0.25 µg/mL
CN(C)c1nc(C(F)(F)F)nc2c1ncn2Cc1ccc(S(C)(=O)=O)cc1	Serotype 30	8 µM	plaque count	inhibition	M-HELA	32%
Nc1ccc2c(O)cc(S(=O)(=O)[O-])cc2c1S(=O)(=O)[O-]		10 µg/mL	cytopathic effect	inhibition	Human amnion AV3 cells	14%

Repeating the final 3 entries:

{"smiles": "Cc1cc(CCCCCOc2cc(Cl)c(-c3nnco3)c(Cl)c2)on1", "strain": "serotype 2 1A 1B 6 14 21 22 15 25 30 50 67 89 86 41", "endpoint": "MIC50", "result": "0.25 µg/mL"}
{"smiles": "CN(C)c1nc(C(F)(F)F)nc2c1ncn2Cc1ccc(S(C)(=O)=O)cc1", "strain": "Serotype 30", "tested at": "8 µM", "read by": "plaque count", "endpoint": "inhibition", "cells": "M-HELA", "result": "32%"}
{"smiles": "Nc1ccc2c(O)cc(S(=O)(=O)[O-])cc2c1S(=O)(=O)[O-]", "tested at": "10 µg/mL", "read by": "cytopathic effect", "endpoint": "inhibition", "cells": "Human amnion AV3 cells", "result": "14%"}